Tested on: P. falciparum
Assay: In vitro antimalarial activity (Figure 1b)

Work on `C1CCC2(CC1)OOC1(CCCCC1)OO2` yielded an IC50 of 25 nM.

From paper PMC5458052 (Nature Communications, 2017)
